Reference: paper PMC11322561 (Nature Communications, 2024)

Molecular target: CD4 protein with His tag (CD4-His) (human)
Assay: BLI

B1: Ibalizumab (antibody, V domains shown)
VH: QVQLQQSGPEVVKPGASVKMSCKASGYTFTSYVIHWVRQKPGQGLDWIGYINPYNDGTDYDEKFKGKATLTSDTSTSTAYMELSSLRSEDTAVYYCAREKDNYATGAWFAYWGQGTLVTVSS
VL: DIVMTQSPDSLAVSLGERVTMNCKSSQSLLYSTNQKNYLAWYQQKPGQSPKLLIYWASTRESGVPDRFSGSGSGTDFTLTISSVQAEDVAVYYCQQYYSYRTFGGGTKLEIK
Question: For B1, which Kd is on record?
Answer: < 1 pM
